A mixed list of measured activities; the numbers were collected in NIAID ChemDB.

Shared fields: whole-cell or culture tests; organism: Staphylococcus aureus

MIC50, MIC90 and the like: level of inhibition, or share of isolates inhibited. Blank or dashed fields: not listed here. Rows are shuffled and stem from different studies. Two numbers with a dash give a range or band.

compound,endpoint,strain or isolate,value
CC(=O)Nc1cc2c(c(C(C)C)c1O)CC[C@H]1C(C)(C)CCC[C@]21C,MIC,-,>32 µg/mL
O=C(O)c1cn(C2CC2)c2c(F)c(N3CCN(CCO)CC3)c(Cl)cc2c1=O,MIC,133,0.25 µg/mL
COCN1OCC(N)C1=O,MIC,-,2500 µM
COC1=C[C@H]2C(C)(C)CCC[C@]2(C)c2ccc(O)c(C(C)C)c21,MIC,Methicillin-resistant,8 µg/mL
CC(C)c1c(O)c(O)cc2c1CC[C@H]1C(C)(C)CCC[C@]21C,MIC,-,8 µg/mL
NC(=O)CN1OCC(N)C1=O,MIC,-,>2500 µM
COc1ccc2c(c1C(C)C)C[C@H]1OC[C@@]23CCCC(C)(C)[C@H]13,MIC,Methicillin-resistant,>32 µg/mL
CC(=O)NC[C@H]1CN(c2ccc(N3CCOCC3)c(F)c2)C(=O)O1,MIC90,Oxacillin-resistant,1–4 µg/mL
COc1c(C=O)cc2c(c1C(C)C)CC[C@H]1C(C)(C)CCC[C@]21C,MIC,-,>32 µg/mL
CO[C@H]1/C=C/O[C@@]2(C)Oc3c(C)c(O)c4c(=O)c(c5oc6cc(N7CCN(CC(C)C)CC7)cc(=O)c6nc5c4c3=C2O)NC(=O)/C(C)=C\C=C\[C@H](C)[C@H](O)[C@@H](C)[C@@H](O)[C@@H](C)[C@H](OC(C)=O)[C@@H]1C,MIC90,16 strains (methicillin- quinolone-resistant),0.0625 µg/mL
COc1c(C(=O)O)cc2c(c1C(C)C)CC[C@H]1C(C)(C)CCC[C@]21C,MIC,-,32 µg/mL
CC(C)c1c(O)ccc2c1CCC1C(C)(C)CCC[C@]21C,MIC,Methicillin-resistant,2 µg/mL
CC(C)c1c(O)c(CO)cc2c1CC[C@H]1C(C)(C)CCC[C@]21C,MIC,-,>32 µg/mL
CC(C)c1c(O)ccc2c1CC(=O)[C@H]1C(C)(C)CCC[C@]21C,MIC,Methicillin-resistant,8 µg/mL
CC(C)c1c(O)c(N)cc2c1CC[C@H]1C(C)(C)CCC[C@]21C,MIC,-,>32 µg/mL
CCC1CN(c2c(Cl)cc3c(=O)c(C(=O)O)cn(C4CC4)c3c2F)CCN1,MIC,422,0.25 µg/mL
CN1CCN(c2c(F)cc3c(=O)c(C(=O)O)cn4c3c2SCC4)CC1,MIC90,30 strains,2 µg/mL
NC1CONC1=O,MIC,-,200 µM
CC(=O)CCN1CCN(c2c(Cl)cc3c(=O)c(C(=O)O)cn(C4CC4)c3c2F)CC1,MIC,133,0.25 µg/mL
CC(C)c1c(O)ccc2c1C=C[C@H]1C(C)(C)CCC[C@]21C,MIC,Methicillin-resistant,2 µg/mL
C[C@@H](O)[C@H]1C(=O)N2C(C(=O)O)=C(SCCN=CN)C[C@H]12,MIC90,24 strains (ofloxacin-susceptible),32 µg/mL
CC1CN(c2c(F)cc3c(=O)c(C(=O)O)cn(C4CC4)c3c2Cl)CCN1,MIC,133,0.06 µg/mL
CN1CCN(c2c(F)cc3c(=O)c(C(=O)O)cn4c3c2SCC4CF)CC1,MIC50,30 strains,0.5 µg/mL
O=C(O)c1cn(C2CC2)c2c(F)c(N3CCNC(C4CCCCC4)C3)c(Cl)cc2c1=O,MIC,133,0.06 µg/mL
COc1c(N2CCNC(C)C2)c(F)cc2c(=O)c(C(=O)O)cn(C3CC3)c12,MIC50,25 strains (ofloxacin-resistant),8 µg/mL
CC1CN(c2c(Cl)cc3c(=O)c(C(=O)O)cn(C4CC4)c3c2F)CCN1,MIC,422,0.25 µg/mL
CCCCCCCCCC(=O)N[C@H]1[C@H](Oc2c3cc4cc2Oc2ccc(cc2Cl)[C@@H](O[C@@H]2O[C@H](CO)[C@@H](O)[C@H](O)[C@H]2NC(C)=O)[C@@H]2NC(=O)[C@H](NC(=O)[C@@H]4NC(=O)[C@H]4NC(=O)[C@@H](Cc5ccc(c(Cl)c5)O3)NC(=O)[C@H](N)c3ccc(O)c(c3)Oc3cc(O)cc4c3)c3ccc(O)c(c3)-c3c(O[C@H]4O[C@H](CO)[C@@H](O)[C@H](O)[C@@H]4O)cc(O)cc3[C@H](C(=O)O)NC2=O)O[C@H](CO)[C@@H](O)[C@@H]1O,MIC90,25 strains (ofloxacin-resistant),4 µg/mL
N[C@@H](C(=O)N[C@@H]1C(=O)N2C(C(=O)O)=C(Cl)CS[C@H]12)c1ccccc1,MIC50,30 strains,1 µg/mL
NC1CCN(c2nc3c(cc2F)c(=O)c(C(=O)O)cn3-c2ccc(F)cc2F)C1,MIC50,25 strains (methicillin-susceptible),0.06 µg/mL
NC1CON(CCF)C1=O,MIC,-,>2500 µM
CO[C@H]1/C=C/O[C@@]2(C)Oc3c(C)c(O)c4c(O)c(c(/C=N/N5CCN(C)CC5)c(O)c4c3C2=O)NC(=O)/C(C)=C\C=C\[C@H](C)[C@H](O)[C@@H](C)[C@@H](O)[C@@H](C)[C@H](OC(C)=O)[C@@H]1C,MIC,Terajima,0.0078 µg/mL
CC1CN(c2c(Cl)cc3c(=O)c(C(=O)O)cn(C4CC4)c3c2Cl)CCN1,MIC,1756,0.125 µg/mL
CC(C)c1c(O)ccc2c1C(=O)[C@H](Br)[C@H]1C(C)(C)CCC[C@]21C,MIC,Methicillin-resistant,8 µg/mL

A second listing of 5 rows from above:

compound	endpoint	strain or isolate	value
CC(C)c1c(O)c(CO)cc2c1CC[C@H]1C(C)(C)CCC[C@]21C	MIC	-	>32 µg/mL
CC(C)c1c(O)c(O)cc2c1CC[C@H]1C(C)(C)CCC[C@]21C	MIC	-	8 µg/mL
NC1CONC1=O	MIC	-	200 µM
COc1c(N2CCNC(C)C2)c(F)cc2c(=O)c(C(=O)O)cn(C3CC3)c12	MIC50	25 strains (ofloxacin-resistant)	8 µg/mL
COC1=C[C@H]2C(C)(C)CCC[C@]2(C)c2ccc(O)c(C(C)C)c21	MIC	Methicillin-resistant	8 µg/mL